This passage reports activity change, negative = inhibition results from PubChem BioAssay AID1159524 (National Center for Advancing Translational Sciences (NCATS), 2015).

Only a part is listed here, and it is no random draw. Results filed as inconclusive are left out. Some salts or complexes appear as unconnected parts, following the source record. Calls of active or inactive are those of the source. Calls come from the whole dose curve; tested in HEK293T cells.
% is set by controls: 0 for no effect and ±100 for the full control effect.

This experiment in a line: High Throughput Screening for Foot and Mouth Disease Virus Antivirals. Note: read-out not given here; nearly all actives have a fitted effect of over 45% in size. As to conditions: FMDV antiviral cell-based qHTS; at 57.9 µM (top of the series). Background: qHTS replaces the single test concentration by a dilution series.
For the compound `Cn1c(=O)[nH]cc(N(CCCl)CCCl)c1=O`, the activity change, negative = inhibition is inactive: -1.06%.

As for `Cc1ccc(Nc2c([N+](=O)[O-])cc([N+](=O)[O-])cc2[N+](=O)[O-])cc1`, the activity change, negative = inhibition is inactive: -10.1%.

Take `O=C(O)c1cccc(Nc2c([N+](=O)[O-])cc([N+](=O)[O-])cc2[N+](=O)[O-])c1`: the activity change, negative = inhibition is inactive: -13.9%.

Take `N/C(=N\O)c1c(N)no[n+]1[O-]`: the activity change, negative = inhibition was inactive: 0.253%.

In the case of `Cc1cc(N(CCCl)CCCl)ccc1C=O`, the activity change, negative = inhibition was inactive: -15.9%.

`CCOC(=O)C(CC)C1=NC(C)(C)Cc2ccccc21.O=[N+]([O-])c1cc([N+](=O)[O-])c(O)c([N+](=O)[O-])c1` (stereo unspecified): the activity change, negative = inhibition is inactive: -25.6%.

As to `COc1ccc2c(c1O)-c1c(O)c(OC)cc3c1[C@H](C2)[N+](C)(C)CC3.O=[N+]([O-])c1cc([N+](=O)[O-])c([O-])c([N+](=O)[O-])c1[O-]`, the activity change, negative = inhibition is inactive: -2.25%.

As for `O=C(OC1CN2CCC1CC2)c1ccc([N+](=O)[O-])cc1` (stereo unspecified), the activity change, negative = inhibition was inactive: -3.1%.

As to `O=[N+]([O-])c1cc([N+](=O)[O-])c(OC2CCCCC2O)c([N+](=O)[O-])c1` (stereo unspecified), the activity change, negative = inhibition was inactive: -12.8%.

As to `O=C1C(O)=C([N+](=O)[O-])C(=O)C(O)=C1[N+](=O)[O-]`, the activity change, negative = inhibition was inactive: 14.3%.

Turning to `O=P1(N(CCCl)CCCl)SCCCS1`, the activity change, negative = inhibition was inactive: 0.687%.
